Pooled drug test results. Numbers come from NIAID ChemDB, via PubChem.

All rows: tests in culture; organism: Mycobacterium tuberculosis

MIC bound comes from a single tested concentration. Rows are shuffled and stem from different studies. Inhibition is in % at the dose shown (toxicity tests: loss of growth or viability). ECn: concentration that inhibits the pathogen or its effect by n%. An empty or dashed field is not shown. A number after MIC or MFC names an inhibition level or a share of isolates.

SMILES	changes	cells	strain or isolate	read-out	dose	read by	result
Cc1cccc(C)c1Sc1ncnc2nc[nH]c12	-	-	H37Ra	MIC	-	-	>12.8 µg/mL
NNC(=O)c1ccncc1	-	-	MDR-3948 (MDR)	MIC	-	-	3.2 µg/mL
CCCCCCCCCCCNCCNCCc1ccccc1	-	-	-	MIC	-	-	25 µM
O=C(O)/C=C/c1ccc(-c2cc(C(F)(F)F)cc(C(F)(F)F)c2)o1	-	-	H37Rv	inhibition	12.5 µg/mL	BACTEC	22%
Clc1nc(Sc2ccncc2)c2[nH]cnc2n1	-	-	H37Ra	MIC	-	-	>12.8 µg/mL
O=c1c2c3c(sc2nc2n1N=CN(c1ccccc1)C2)CCCC3	-	-	H37Rv	inhibition	6.25 µg/mL	resazurin	4%
COc1ccc(OC)c(Sc2ncnc3nc[nH]c23)c1	-	-	H37Rv	inhibition	6.25 µg/mL	-	0%
CC(=O)NC[C@H]1CN(c2ccc(N3CCOCC3)c(F)c2)C(=O)O1	-	-	Strain 40	MIC	-	-	0.25 µg/mL
CS(=O)(=O)O.N/C(=N\O)c1ccc2oc(/C=C/c3cc4cc(/C(N)=N/O)ccc4o3)cc2c1	-	-	H37Rv	inhibition	12.5 µg/mL	BACTEC	8%
Cc1ccc(CSc2ccccn2)cc1	-	-	H37Rv	MIC90	-	-	>6.25 µg/mL
CC(=O)O[C@H]1C[C@@]2(C)[C@@H](C[C@@H](O)[C@H]3[C@@]4(C)CC[C@@H](O)[C@@H](C)[C@@H]4CC[C@@]32C)/C1=C(\CCC=C(C)C)C(=O)O	-	-	H37Ra	Mean MIC	-	-	5 µg/mL
CO[C@H]1/C=C/O[C@@]2(C)Oc3c(C)c(O)c4c(O)c(c(/C=N/N5CCN(C)CC5)c(O)c4c3C2=O)NC(=O)/C(C)=C\C=C\[C@H](C)[C@H](O)[C@@H](C)[C@@H](O)[C@@H](C)[C@H](OC(C)=O)[C@@H]1C	Isoniazid-resistant	-	Clinical isolate 9139	MIC	-	broth dilution	≤0.1 µM
Cc1ccc(C)c(NC(=O)C(=O)Nn2c(=S)[nH]c3ccccc3c2=O)c1	-	-	H37Rv	inhibition	12.5 µg/mL	BACTEC	-9%
O=c1[nH]c2ccc(Cl)cc2c(O)c1N=Nc1ccc(Cl)cc1	-	-	H37Rv	inhibition	6.25 µg/mL	resazurin	98%
NNC(=O)c1ccncc1	-	-	H37Rv	Mean MIC	-	-	0.05 µg/mL
CC[C@@H](CO)NCCN[C@@H](CC)CO	-	-	Isolate 16	MIC	-	-	0.5 µg/mL
NNC(=O)c1ccncc1	-	-	42494	MIC	-	-	≥0.2 µg/mL
COc1cccc(CSc2nc(=O)[nH]c3nc[nH]c23)c1	-	-	H37Ra	MIC	-	-	16 µg/mL
N[C@@H]1CONC1=O	-	-	H37Ra	Mean MIC	-	-	17 µg/mL
C[C@H]1COc2c(N3CCN(C)CC3)c(F)cc3c(=O)c(C(=O)O)cn1c23	-	-	Isolate 16	MIC	-	-	0.25 µg/mL
CCOC(=O)c1c(NC(=O)c2c(F)c(F)c(F)c(F)c2F)sc2c1CCOC2	rpoB S522L mutant	-	H37Rv	EC90	-	turbidity	0.27 µM
CO[C@H]1/C=C/O[C@@]2(C)Oc3c(C)c(O)c4c(=O)c(c5oc6cc(N7CCN(CC(C)C)CC7)cc(=O)c6nc5c4c3=C2O)NC(=O)/C(C)=C\C=C\[C@H](C)[C@H](O)[C@@H](C)[C@@H](O)[C@@H](C)[C@H](OC(C)=O)[C@@H]1C	-	-	3125 (rifampin-sensitive)	MIC	-	-	0.012 µg/mL
CCN1CCc2c(sc(NC(=O)c3c(F)c(F)c(F)c(F)c3F)c2C(=O)NC)C1	-	-	H37Rv	MIC	-	resazurin	1.6 µM
CCN(CC)CCNc1ccc(C)c2sc3c(OC)cccc3c(=O)c12	-	-	H37Rv	MIC bound	-	BACTEC	≤12.5 µg/mL
COc1ccc(N=Nc2c(O)c3cc(Cl)ccc3[nH]c2=O)c(C)c1	-	-	H37Rv	MIC	-	resazurin	>6.25 µg/mL
CO/C(C)=C1/NC(=O)[C@H]([C@@H](C)O)NC(=O)c2csc(n2)-c2cc(O)c(-c3nc(C(=O)NCCCN4CCOCC4)cs3)nc2-c2csc(n2)[C@@H]2COC(=O)c3c4c5c(cccc5n3O)COC(=O)[C@@H](O[C@H]3C[C@](C)(O)[C@H](N(C)C)[C@H](C)O3)[C@@H](OC4)[C@H](NC(=O)c3csc1n3)c1nc(cs1)C(=O)N2	Rifampicin- and isoniazid-resistant	-	Clinical isolate 8600	MIC	-	broth dilution	≤2.5 µM
c1ccc(CCCNCCNCCC(c2ccccc2)c2ccccc2)cc1	-	-	-	MIC	-	-	37.5 µM
O=C1C=CC(=C(c2ccc(O)cc2)c2c(Br)c(Br)c(Br)c(Br)c2S(=O)(=O)O)C=C1	-	-	H37Rv	MIC bound	-	BACTEC	>12.5 µg/mL
CO[C@H]1/C=C/O[C@@]2(C)Oc3c(C)c(O)c4c(O)c(c(/C=N/N5CCN(C)CC5)c(O)c4c3C2=O)NC(=O)/C(C)=C\C=C\[C@H](C)[C@H](O)[C@@H](C)[C@@H](O)[C@@H](C)[C@H](OC(C)=O)[C@@H]1C	-	-	101596	MIC	-	-	≥2 µg/mL
CCOC(=O)c1c(NC(=O)c2ccccc2)sc2c1CCN(C(=O)OC(C)(C)C)C2	-	-	H37Rv	MIC	-	resazurin	>100 µg/mL
NNC(=O)c1ccncc1	-	-	Clinical isolate 10367	MIC	-	broth dilution	≤0.2 µM
O=C1CC(SC(=S)N2CCCCC2)C(=O)N1c1ccccc1	-	-	RMP-R	MIC	-	-	3.2 µg/mL
CCCCCCCCCCCNCCNCc1ccccc1OCC	-	-	-	MIC	-	-	25 µM
CCNC(=O)c1c(NC(=O)c2c(F)c(F)c(F)c(F)c2F)sc2c1CCN(CC)C2	-	-	ATCC35838	EC50	-	turbidity	2.6 µM
C[C@@H]1CN(c2c(F)c(N)c3c(=O)c(C(=O)O)cn(C4CC4)c3c2F)C[C@H](C)N1	-	-	MDR-2037 (MDR)	MIC	-	-	0.1 µg/mL
O=c1[nH]c2c(Cl)c(Cl)ccc2c(O)c1N=Nc1cccc([N+](=O)[O-])c1	-	-	H37Rv	inhibition	6.25 µg/mL	resazurin	27%
COc1ccccc1C(=O)C1N=C(c2ccccc2)OC1=O	-	-	H37Rv	inhibition	12.5 µg/mL	BACTEC	35%
NCC[C@H](O)C(=O)N[C@@H]1C[C@H](N)[C@@H](O[C@H]2O[C@H](CN)[C@@H](O)[C@H](O)[C@H]2O)[C@H](O)[C@H]1O[C@H]1O[C@H](CO)[C@@H](O)[C@H](N)[C@H]1O	-	-	H37Ra	Median MIC	-	-	0.6 µg/mL
CO[C@H]1/C=C/O[C@@]2(C)Oc3c(C)c(O)c4c(O)c(c5c(c4c3C2=O)NC2(CCN(CC(C)C)CC2)N=5)=NC(=O)/C(C)=C\C=C\[C@H](C)[C@H](O)[C@@H](C)[C@@H](O)[C@@H](C)[C@H](OC(C)=O)[C@@H]1C	-	-	Isolate 920492 rifampicin-resistant	MIC	-	-	16 µg/mL
CCCCC(CC)CN1CN(CC(CC)CCCC)CC(C)(NCCN[C@@H](CO)[C@@H](O)c2ccc(SC)cc2)C1	-	-	-	MIC	-	-	25 µM
CCO/N=C(/NC(=O)NC(=O)/C(=N/OCC)c1ccccc1)c1ccccc1	-	-	H37Rv	inhibition	12.5 µg/mL	BACTEC	27%
C=C(NC(=O)c1csc(-c2nc3c(cc2O)-c2nc(cs2)C(=O)N[C@@H]([C@@H](C)O)C(=O)N/C(=C(\C)OC)c2nc(cs2)C(=O)N[C@@H]2c4nc(cs4)C(=O)N[C@@H](COC(=O)c4c5c6c(cccc6n4O)COC(=O)[C@@H](O[C@H]4C[C@](C)(O)[C@H](N(C)C)[C@H](C)O4)[C@H]2OC5)c2nc-3cs2)n1)C(N)=O	Rifampicin- and isoniazid-resistant	-	Clinical isolate 565	MIC	-	broth dilution	≤25 µM
NC[C@H]1O[C@H](O[C@H]2[C@H](O)[C@@H](O[C@H]3O[C@H](CO)[C@@H](O)[C@H](N)[C@H]3O)[C@H](N)C[C@@H]2N)[C@H](O)[C@@H](O)[C@@H]1O	-	-	TN2229 (N2)	MIC	-	-	>256 µg/mL
CCN1CCc2c(sc(NC(=O)c3c(F)c(F)c(F)c(F)c3F)c2C#N)C1	-	-	ATCC 35822	EC50	-	turbidity	7.1 µM
CC(=O)C1(C)C(=O)N(c2ccc(C)cc2)C(=O)N1c1ccc(C)cc1	-	-	H37Rv	MIC bound	-	BACTEC	>12.5 µg/mL
CC[C@@H](CO)NCCN[C@@H](CC)CO	-	-	MDR11	MIC	-	broth dilution / resazurin	8 µg/mL
NC[C@@H]1O[C@H](O[C@H]2[C@@H](O)[C@H](O[C@@H]3[C@@H](O)[C@H](N)C[C@H](N)[C@H]3O[C@H]3O[C@H](CO)[C@@H](O)[C@H](O)[C@H]3N)O[C@@H]2CO)[C@H](N)[C@@H](O)[C@@H]1O	-	-	H37Rv	Mean MIC	-	-	2.5 µg/mL
CC(NNC(=O)c1cc[n+]([B]C#N)cc1)c1ccccc1	-	-	-	inhibition	0.5 µM	BACTEC	0%
CC(=O)c1ccc(N=Nc2c(O)c3cccc(Cl)c3[nH]c2=O)cc1	-	-	H37Rv	inhibition	6.25 µg/mL	resazurin	24%
CCN1CCc2c(sc(NC(=O)c3c(F)c(F)c(F)c(F)c3F)c2C(N)=O)C1	-	-	-	EC90	-	low oxygen	43 µM
CO[C@H]1/C=C/O[C@@]2(C)Oc3c(C)c(O)c4c(O)c(c(/C=N/N5CCN(C/C=C/c6ccccc6)CC5)c(O)c4c3C2=O)NC(=O)/C(C)=C\C=C\[C@H](C)[C@H](O)[C@@H](C)[C@@H](O)[C@@H](C)[C@H](OC(C)=O)[C@@H]1C	-	-	2219 (rifampin-resistant)	MIC	-	-	0.4 µg/mL
NNC(=O)c1ccncc1	-	-	Isolate 11	MIC	-	-	2 µg/mL
COc1cccc2c1C(=O)c1c(O)c3c(c(O)c1C2=O)C[C@@](O)(/C(C)=N/NC(=O)c1ccc(Cl)cc1)C[C@H]3O[C@H]1C[C@H](N)[C@H](O)[C@H](C)O1	-	-	PZA-R	MIC	-	-	6.3 µg/mL
N#Cc1c(NC(=O)c2c(F)c(F)c(F)c(F)c2F)sc2c1CCOC2	rpoB S522L mutant	-	H37Rv	EC90	-	turbidity	12 µM
O=C(Nn1cnc2ccccc2c1=O)c1ccc(NC(=S)Nc2ccccc2)cc1	-	-	H37Rv	MIC bound	-	BACTEC	>12.5 µg/mL
COc1c(N2CCNC(C)C2)c(F)cc2c(=O)c(C(=O)O)cn(C3CC3)c12	-	-	Strain 35	MIC	-	-	8 µg/mL
COc1cc(/C=C/c2ccccn2)oc(=O)c1	-	-	H37Rv	inhibition	12.5 µg/mL	BACTEC	-14%
CO[C@H]1/C=C/O[C@@]2(C)Oc3c(C)c(O)c4c(O)c(c5c(c4c3C2=O)NC2(CCN(CC(C)C)CC2)N=5)=NC(=O)/C(C)=C\C=C\[C@H](C)[C@H](O)[C@@H](C)[C@@H](O)[C@@H](C)[C@H](OC(C)=O)[C@@H]1C	-	-	H37Ra	Mean MIC	-	-	≤0.006 µg/mL
COC(=O)C[C@H]1C(C)(C)C(=O)[C@@H]2CC3=C4CC(=O)O[C@@H](c5ccoc5)[C@]4(C)CC[C@@H]3[C@@]1(C)C2=O	-	-	H37Rv	MIC bound	-	BACTEC	>12.5 µg/mL
Cc1c(CSc2nc(=O)[nH]c3nc[nH]c23)cccc1[N+](=O)[O-]	-	-	H37Rv	inhibition	6.25 µg/mL	-	0%
N#Cc1c(N2CCN(c3ccc([N+](=O)[O-])cc3)CC2)[n+](=O)c2ccc(Cl)cc2n1[O-]	-	-	H37Rv	MIC	-	resazurin	0.2 µg/mL
O=c1[nH]c2c([N+](=O)[O-])cccc2c(O)c1N=Nc1cccc(Cl)c1	-	-	H37Rv	inhibition	6.25 µg/mL	resazurin	82%
CN1C(=O)C23SSC1(C)C(=O)N2c1ccccc1C3(C)C	-	VERO	H37Rv	MIC	-	BACTEC	0.2 µg/mL
CO[C@H]1/C=C/O[C@@]2(C)Oc3c(C)c(O)c4c(O)c(c(/C=N/N5CCN(C)CC5)c(O)c4c3C2=O)NC(=O)/C(C)=C\C=C\[C@H](C)[C@H](O)[C@@H](C)[C@@H](O)[C@@H](C)[C@H](OC(C)=O)[C@@H]1C	-	-	TN640	MIC	-	-	>32 µg/mL
N[C@@H](Cn1ccc(=O)c(O)c1)C(=O)O	-	-	H37Rv	MIC	-	BACTEC	≥12.8 µg/mL
CCOC(=O)c1c(NC(=O)c2c(F)c(F)c(F)c(F)c2F)sc2c1CCNC2=O	-	-	ATCC35838	EC50	-	turbidity	0.34 µM
CCOC(=O)N1C(=O)c2ccccc2S1(=O)=O	-	-	H37Rv	MIC bound	-	BACTEC	>6.25 µg/mL
CO/C(C)=C1/NC(=O)[C@H]([C@@H](C)O)NC(=O)c2csc(n2)-c2cc(O)c(-c3nc(C(=O)NC(C)c4nc(-c5ccccn5)ns4)cs3)nc2-c2csc(n2)[C@@H]2COC(=O)c3c4c5c(cccc5n3O)COC(=O)[C@@H](O[C@H]3C[C@](C)(O)[C@H](N(C)C)[C@H](C)O3)[C@@H](OC4)[C@H](NC(=O)c3csc1n3)c1nc(cs1)C(=O)N2	Multidrug-resistant	-	Clinical isolate 565	MIC	-	broth dilution	≤10 µM
Cn1c2c(c(=O)n(C)c1=O)S(=O)(=O)N=CN2	-	-	H37Rv	MIC bound	-	BACTEC	>12.5 µg/mL
O=c1[nH]c2c(Cl)cccc2c(O)c1N=Nc1ccccc1	-	-	H37Rv	MIC	-	resazurin	<6.25 µg/mL